Record: PubChem BioAssay AID504761 (Drosophila RNAi Screening Center, 2011)
The deposit covers about 22,000 reagents; below is a random part of those that have a named target and a result. Over the whole deposit, 116 (0.52%) got an active call. 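Calls depend on retest data that are not deposited; infection was ranked per plate without normalising between plates; the unit of the infection score is not given.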 Raw values are not corrected between plates. Entries without a mark were called inactive. Names joined by + are all predicted targets of the reagent. Not stated in the record: the amount of reagent, the time to read-out.

- Screen: 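Fly genes whose silencing reduces dengue virus type 2 infection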 (primary screen)
- Cells: D.Mel-2 cells from Drosophila
- Reagent: long dsRNA against Drosophila genes
- Treatment: infection with dengue virus type 2; dose and infection time not stated
- Measurement: 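Cells stained for dengue envelope protein and imaged; percent of infected cells per well on duplicate plates, ranked by infection, with stained nuclei counted for cell number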
- Scale: infection score: higher = more virus-infected cells; cell count: higher = more cells in the well
- Hit rule: 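Low infection ranks in the two replicates (chance level up to 0.065) followed by a retest with a 1.5-fold or larger significant decrease, p below 0.05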
- Calls: active = confirmed: knock-down lowers infection; inactive = not picked or not confirmed

no.	target gene	DRSC id	infection score, replicate 1	infection score, replicate 2	cell count, replicate 1	cell count, replicate 2
1	CG10405	DRSC14238	0.94	0.81	6502	6555
2	Hmt-1	DRSC15555	7.65	9.7	6381	6484
3	CG11498	DRSC14315	4.88	10.4	6513	5085
4	CG43861	DRSC02308	7.8	4.24	1667	7177
5	Gba1a	DRSC21494	2.66	20.4	5862	6040
6	Elp6	DRSC16571	10.2	15.7	5894	5960
7	sage	DRSC14580	11.8	7.32	6580	6366
8	sage	DRSC28200	9.18	24.6	5989	5801
9	CG14434	DRSC17927	6.64	2.24	6568	6439
10	CG4306	DRSC10409	8.16	1.37	6645	6192
11	CG4306	DRSC28986	21.8	6.09	5854	1051
12	ftz	DRSC12626	8.29	7.55	6382	6267
13	ftz	DRSC28088	14.5	25.4	6358	5539
14	CG30480	DRSC06736	15.5	9.61	5980	6753
15	CG30480	DRSC28831	3.43		699	431
16	Top3beta	DRSC18724	1.69	5.55	6270	6273
17	sip2	DRSC03154	6.04		1408	458
18	CG42374 + Mettl5	DRSC11085	4.06	4.81	6422	6587
19	Arc1	DRSC06159	2.73	5.14	5240	6951
20	Arc1	DRSC28128	9.88	7.87	5932	5627
21	Clp	DRSC00746	3.84	1.77	5860	5923
22	CG11127	DRSC06043	2.29	17.6	6993	5978
23	sdk	DRSC18831	7.76	25.1	5630	5766
24	Pk34A	DRSC03398	7.92	1.42	6008	6551
25	Pk34A	DRSC28021	17.3	16.9	4414	2882
26	CG32100	DRSC09725	3.99	5.04	6291	6513
27	CG32100	DRSC10331	1.74	2.84	6319	6549
28	LTV1	DRSC05951	18.6	4.84	3782	5729
29	REG	DRSC20273	5.23	6.66	5871	6383

Targets above whose gene name starts with S or s:
target gene	DRSC id	infection score, replicate 1	infection score, replicate 2	cell count, replicate 1	cell count, replicate 2
sage	DRSC14580	11.8	7.32	6580	6366
sage	DRSC28200	9.18	24.6	5989	5801
sip2	DRSC03154	6.04		1408	458
sdk	DRSC18831	7.76	25.1	5630	5766

Continued:
no.	target gene	DRSC id	infection score, replicate 1	infection score, replicate 2	cell count, replicate 1	cell count, replicate 2
30	hyd	DRSC16971	10.2	4.68	6441	6941
31	hyd	DRSC28294	0.25	25.2	398	4721
32	ms(2)35Ci	DRSC01460	1.37	1.71	5915	5847
33	Naa30B	DRSC08245	2.1	3.3	6040	6554
34	smal	DRSC02318	3.09	2.35	6349	6646
35	smal	DRSC02319	3.43	6.64	6324	6231
36	smal	DRSC02320	3.65	1.19	6349	6287
37	smal	DRSC02504	4.77	9.61	6305	6189
38	smal	DRSC22866	1.04	2.97	5964	6701
39	smal	DRSC26352	17.2	7.92	5889	6449
40	vers	DRSC23232	0.82	2.79	6726	6870
41	CG8219	DRSC10971	0.97	3.34	6466	6105
42	CG8219	DRSC24577	7.89	20.4	6880	5859
43	Obp56c	DRSC06552	12.1	2.98	6736	7178
44	Obp56c	DRSC22325	1.9	2.97	5985	6264
45	Obp56c	DRSC28276	27.2	18.4	5442	6003
46	COX8	DRSC11814	2.56	14.3	5264	5416
47	COX8	DRSC28975	6.4	17	5644	5190
48	CG32121	DRSC09265	2.53	1.61	6484	5980
49	twe	DRSC03628	18.8	18.8	6341	6171
50	twe	DRSC27109	5.46	31.5	1338	5385
51	CG7031	DRSC23028	0.56	1.27	6421	7001
52	CG7031	DRSC25813	2.28	12.1	6670	6626
53	CG32428	DRSC11697	27.2	32.5	6496	4887
54	CG32428	DRSC11768	5.33	4.9	6168	6104
55	CG32428	DRSC25993	2.1	4.3	6915	6305
56	AnxB10	DRSC20677	4.1	1.69	6560	6857
57	AnxB10	DRSC25182	3.24	4.23	6173	6472
58	CG11672	DRSC14344	6.46	7.67	6413	6426
